Anti-infective test results gathered from many reports (values: NIAID ChemDB through PubChem).

All rows: growth or infection tests; agent: Hepatitis C virus; read-out: EC50

Rows are shuffled and stem from different studies. An empty or dashed field is not shown. ECn: concentration that inhibits the pathogen or its effect by n%. a–b is a range or a potency band.

| structure | changes | method | strain | cells | result |
|---|---|---|---|---|---|
| CCCCCCOc1ccc(N(C(N)=O)c2nc(-c3ccc(F)c(F)c3)cs2)cc1 | - | - | - | - | <1 µM |
| CCCNC(=S)Nc1cccc(OCCCCCc2ccccc2)c1 | - | reporter gene / fluorescence | - | Ava5-EG(delta4AB)SEAP | 0.001–1 µM |
| COc1cc2c(=O)c(-c3nc(Cc4ccccc4)no3)cn(Cc3ccc(Cl)cc3)c2cc1OC | - | replicon | 1b | - | >10 µM |
| CCCCCOc1ccc(N(C(=O)C(=O)OC)c2nc(-c3cccnc3)cs2)cc1C(F)(F)F | - | - | - | - | <1 µM |
| COc1cc2c(=O)c(-c3noc(CC4CCCCC4)n3)cn(Cc3ccc(Cl)cc3)c2cc1OC | - | replicon | 1b | - | >10 µM |
| CNC(=O)CCC(=O)N1c2cccc(O)c2NC2=C(C(=O)CC(C)(C)C2)C1c1ccc(OCc2ccccc2)cc1Cl | - | luciferase / reporter gene / replicon | 1b | - | 7.41 µM |
| CCOc1nc(NCc2ccc(F)cc2)nc2ccc(-c3ccc(NC(=O)NC4CC4)cc3)nc12 | - | replicon | - | - | <0.1 µM |
| CC1(C)CC(=O)C2=C(C1)Nc1c(O)cccc1N(C(=O)c1ccc(C#N)cn1)[C@H]2c1ccc(OCc2ccccc2)cc1F | - | luciferase / reporter gene / replicon | 1b | - | 31.37 µM |
| CCCc1nc(NCc2ccc(F)cc2)nc2ccc(-c3ccc(NC(=O)C(C)(C)N)cc3)nc12 | - | replicon | - | - | <0.1 µM |
| CCN(CC)c1ccc2c(c1)Cc1cc(NC(N)=S)ccc1-2 | - | reporter gene / fluorescence | - | Ava5-EG(delta4AB)SEAP | 0.001–1 µM |
| CC1(C)CC(=O)C2=C(C1)Nc1c(O)cccc1NC2c1ccc(OCc2cc(F)cc(F)c2)cc1F | - | luciferase / reporter gene / replicon | 1b | - | 5.68 µM |
| CCCCCCCCCc1ccc(N(C(=O)OCC[N+](C)(C)C)c2nc(-c3cccnc3)c(F)s2)cc1C(F)(F)F | - | - | - | - | <1 µM |
| CCC(=O)Nc1ccc(-c2ccc3nc(N)nc(N4CCS(=O)(=O)CC4)c3n2)cc1 | - | replicon | - | Huh7 | <0.3 µM |
| S=C(Nc1cccnc1)Nc1ccc2c(c1)Cc1cc(Br)ccc1-2 | - | reporter gene / fluorescence | - | Ava5-EG(delta4AB)SEAP | 0.001–1 µM |
| CN1CCN(c2cc3c(cc2F)c(=O)c(-c2nnc(Cc4ccccc4)o2)cn3Cc2ccc(Cl)cc2)CC1 | - | replicon | 1b | - | <2 µM |
| CC(=O)N1c2cccc(O)c2NC2=C(C(=O)CC(C)(C)C2)C1c1ccc(C(F)(F)F)cc1 | - | luciferase / reporter gene / replicon | 1b | - | 8.47 µM |
| NS(=O)(=O)c1ccc(CNc2nc(NCC(F)(F)F)c3nc(-n4cncn4)ccc3n2)cc1 | - | replicon | - | - | <0.1 µM |
| NC(=S)Nc1cccc(OCCCCCOc2ccncc2)c1 | - | reporter gene / fluorescence | - | Ava5-EG(delta4AB)SEAP | 0.001–1 µM |
| Nc1nc(O[C@H]2CCOC2)c2nc(-c3ccc(C(=O)NCC(F)(F)F)cc3)ccc2n1 | - | replicon | - | Huh7 | <0.3 µM |
| NC(=S)Nc1cccc(OCCCCOc2ccc(-c3ccccc3)cc2)c1 | - | reporter gene / fluorescence | - | Ava5-EG(delta4AB)SEAP | 0.001–1 µM |
| NC(=O)COc1ccc2c(c1)S(=O)(=O)N=C(c1c(O)c3cc(F)ccc3n(CCC3CC3)c1=O)N2 | - | replicon | 1b 51499 | - | 0.0029 µM |
| CN1CCN(c2cc3c(cc2F)c(=O)c(-c2noc(CN4CCCCC4)n2)cn3Cc2ccc(Cl)cc2)CC1 | - | replicon | 1b | - | <10 µM |
| NC(=O)N(c1ccc(OCC2CCCCC2)c(F)c1)c1nc(-c2ccc(F)c(F)c2)cs1 | - | - | - | - | <1 µM |
| CCOc1nc(NCc2ccc(F)cc2Cl)nc2ccc(-c3ccc(F)cc3)nc12 | - | replicon | - | - | <0.1 µM |
| N#CCCCC(c1ccccc1)c1nc(-c2cn(Cc3ccc(C(F)(F)F)cc3F)c3ccccc3c2=O)no1 | - | replicon | 1b | - | <0.5 µM |
| CCOc1nc(N)nc2ccc(-c3ccc(C(=O)Nc4ccc(F)cc4)cc3)nc12 | - | replicon | - | Huh7 | 0.3–1 µM |
| COc1c(-c2ccc3cc(NS(C)(=O)=O)ccc3c2)cc(-n2ccc(=O)[nH]c2=O)cc1C(C)(C)C | P495S | luciferase | genotype 1b | Huh7 | 0.0019 µM |
| CS(=O)(=O)CCNc1nc(N)nc2ccc(-c3cccc(NS(=O)(=O)C4CC4)c3)nc12 | - | replicon | - | Huh7 | 0.3–1 µM |
| CC1(C)CC(=O)C2=C(C1)Nc1c(O)cccc1N(C(=O)NCC(N)=O)C2c1ccc(OCc2ccccc2)cc1Cl | - | luciferase / reporter gene / replicon | 1b | - | >100 µM |
| CCOc1nc(NCc2ccc(F)cc2)nc2ccc(-c3ccc(C(=O)NC(C)(C)CN4CCCC4)cc3)nc12 | - | replicon | - | - | <0.1 µM |
| CN1CCN(c2cc3c(cc2F)c(=O)c(-c2noc(Cc4ccccc4)n2)cn3Cc2ccccc2F)CC1 | - | replicon | 1b | - | <10 µM |

Again, the opening 2 rows:

structure	changes	method	strain	cells	result
CCCCCCOc1ccc(N(C(N)=O)c2nc(-c3ccc(F)c(F)c3)cs2)cc1	-	-	-	-	<1 µM
CCCNC(=S)Nc1cccc(OCCCCCc2ccccc2)c1	-	reporter gene / fluorescence	-	Ava5-EG(delta4AB)SEAP	0.001–1 µM